Inhibition data for 78 compounds are collected here from PubChem BioAssay AID652162 (Broad Institute, 2013).

A word on the inhibition: it is the relative decrease from the control value, in per cent.

Structures are written as SMILES. The entries are a selection whose mix differs from that of the whole data set. Calls of active or inactive are those of the source. No stated cut-off is given here; in the data, active means inhibition above about 10%; inactive means the rest.

This test has as its target Toxin B (Clostridioides difficile) (UniProt P18177). Kind of test: TcdB glycohydrolase inhibitors, primary screen, biochemical, single point, plate reader (AID 652162). Conditions: TcdB glycohydrolase enzymatic assay, at 9.99 µM, active compounds read high.
On to `C[C@H]1OP(=O)(Oc2ccccc2)C[C@@H]2O[C@@H]21` (stereo partly drawn), for which the inhibition was inactive: 1.86%.

Turning to `C[C@@H]1C=CCP(=O)(Oc2ccccc2)O1` (stereo partly drawn), the inhibition was inactive: -14.2%.

Turning to `CC(=O)c1ccc(N2CC2c2ccncc2)cc1` (stereo not drawn), the inhibition is inactive: 0.877%.

As to `N#C/C(=C\c1ccc(N(CCBr)CCBr)cc1)C(N)=O`, the inhibition was inactive: 2.17%.

In the case of `COC(=O)C1(C)COP(=O)(NCc2ccccc2)OC1` (stereo not drawn), the inhibition was inactive: 0.384%.

With `O=[As](O)(c1cccc(O)c1)c1cccc(O)c1`, the inhibition is inactive: -0.416%.

Turning to `O=C(OC1CN2CCC1CC2)c1ccc(Cl)cc1` (stereo not drawn), the inhibition is inactive: 0.006%.

Turning to `O=[As](O)(O)c1cccnc1`, the inhibition was inactive: 0.923%.

Take `COc1cc(C(=O)NCC2(N3CCOCC3)CCCCC2)cc(Cl)c1OC(C)C`: the inhibition is inactive: 2.84%.

Take `CS(=O)(=O)c1ccc(Cl)c(NC(=O)COC(=O)C(O)(c2ccccc2)c2ccccc2)c1`: the inhibition is inactive: 0.834%.

Turning to `CCOP(=O)(Nc1cccc2ccccc12)OCC`, the inhibition is inactive: 0.964%.

On to `Cc1ccc(NCCc2c([N+](=O)[O-])cc([N+](=O)[O-])cc2[N+](=O)[O-])cc1`, for which the inhibition was inactive: 0.139%.

As to `Nc1cccc2c([As](=O)(O)O)cccc12`, the inhibition was inactive: -0.24%.

For the compound `CCCOP(=S)(Nc1nc(N)cc(=O)[nH]1)OCCC`, the inhibition is inactive: -3.84%.

Consider `O=C(O)COc1ccc([As](=O)(O)O)cc1[N+](=O)[O-]`, for which the inhibition was inactive: 1.01%.

On to `Nc1ccccc1[As](=O)(O)c1ccccc1`, for which the inhibition was inactive: 1.12%.

On to `CCOP1(=S)c2c(C)nn(CCC#N)c2N=C(c2ccccc2F)N1C` (stereo not drawn), for which the inhibition is inactive: -1.07%.

Consider `O=P(Nc1nccs1)(Oc1ccccc1)Oc1ccccc1`, for which the inhibition was inactive: 0.6%.

For `N#CCCN(C(=O)COC(=O)C(O)(c1ccccc1)c1ccccc1)c1ccc(F)cc1`, the inhibition is inactive: 1.78%.

Consider `CCOP1(=S)c2c(C)nn(CCC#N)c2N=C(c2ccc(F)cc2)N1C` (stereo not drawn), for which the inhibition was inactive: -0.093%.

Regarding `CN(C(=O)Cc1ccccc1)[C@@H]1CC[C@]2(CCCO2)C[C@H]1N1CCCC1`, the inhibition was inactive: 0.935%.

Consider `CN(C)C(=O)c1cc([N+](=O)[O-])cc2c1-c1c(cc([N+](=O)[O-])cc1[N+](=O)[O-])C2=O`, for which the inhibition was inactive: 0.211%.

Consider `CN(C(=O)Cc1ccc(Cl)c(Cl)c1)[C@H]1CC[C@@]2(CCCO2)C[C@@H]1N1CCCC1`, for which the inhibition was inactive: -0.718%.

Take `NC(=O)Nc1ccc([As](=O)(O)O)cc1`: the inhibition was inactive: 0.387%.

In the case of `CN(C)C1(CNC(=O)c2ccc(S(C)(=O)=O)cc2)CCCCC1`, the inhibition was inactive: -0.987%.

Consider `O=C(/C=C/c1ccccc1)OC1CN2CCC1CC2` (stereo not drawn), for which the inhibition is inactive: 0.852%.

As to `CCCC1OP(=O)(Nc2ccccc2)OCC1CC` (stereo not drawn), the inhibition was inactive: 0.185%.

On to `Cc1ccc(C(=O)OC2CN3CCC2CC3)cc1` (stereo not drawn), for which the inhibition is inactive: -0.598%.

For `CC1CCC(C(C)C)C(OP(=O)(Nc2ccccn2)c2ccccc2)C1` (stereo not drawn), the inhibition is inactive: 3.62%.

As to `Nc1cccc([As](=O)(O)c2ccccc2)c1`, the inhibition is inactive: 1.11%.

For `O=[As](O)(c1cccs1)c1cccs1`, the inhibition was inactive: 0.368%.

As for `NS(=O)(=O)c1cccc(NC(=O)COC(=O)C(O)(c2ccccc2)c2ccccc2)c1`, the inhibition was inactive: 2.05%.

With `Cc1ccc(S(=O)(=O)N(CCCN)CCCc2c(C)nc(N)[nH]c2=O)cc1`, the inhibition is inactive: 0.255%.

Turning to `O=P1(N(CCCl)CCCl)NCCC(C(F)(F)F)O1` (stereo not drawn), the inhibition was inactive: 1.76%.

As to `CC(C)(C)C(=O)NC(Sc1ncccn1)C(Cl)(Cl)Cl` (stereo not drawn), the inhibition was inactive: 0.206%.

On to `CCC1=CC2Cc3nc4ccc(Cl)cc4c(N)c3C(C1)C2` (stereo not drawn), for which the inhibition is inactive: 0.515%.

On to `CCOP(=O)(NC(=NC(C)c1ccccc1)NC(C)c1ccccc1)OCC` (stereo not drawn), for which the inhibition is inactive: 1.32%.

Turning to `CCOP(=O)(Nc1ccc(C)cn1)OCC`, the inhibition was inactive: 0.42%.

Consider `CN(CCCl)Cc1cc(Cl)c(NC2=NCCN2)c(Cl)c1`, for which the inhibition was inactive: 3.24%.

For the compound `CN(C(=O)Cc1ccc(Cl)c(Cl)c1)[C@@H]1CCCC[C@H]1N1CCCC1`, the inhibition is inactive: 2.02%.

On to `CC(C)/C=N\N=C(\N)N[N+](=O)[O-]`, for which the inhibition is inactive: -0.482%.

With `CN(C(=O)Cc1ccc(Cl)c(Cl)c1)C1CCCC[C@@H]1N1CCCC1` (stereo partly drawn), the inhibition was inactive: 0.444%.

Turning to `COc1ccccc1CNC(=O)COC(=O)C(O)(c1ccccc1)c1ccccc1`, the inhibition was inactive: 0.213%.

For `O=C(O)C(=O)c1ccc(N(CCCl)CCCl)cc1`, the inhibition was inactive: 1.47%.

Regarding `O=C(Nc1ccncc1[N+](=O)[O-])c1ccc([N+](=O)[O-])cc1[N+](=O)[O-]`, the inhibition was inactive: 0.57%.

As for `COP1(=S)c2c(C)nn(CCC#N)c2N=C(c2ccc(F)cc2)N1C` (stereo not drawn), the inhibition is inactive: 0.29%.

Consider `COC(=O)C1(C)COP(=O)(N2CCCC2)OC1` (stereo not drawn), for which the inhibition was inactive: 0.713%.

On to `O=C(OC1CN2CCC1CC2)c1cccc([N+](=O)[O-])c1` (stereo not drawn), for which the inhibition was inactive: 0.195%.

Consider `CCOC(=O)c1ccc(NC(=O)C(C)(CCl)SC)cc1` (stereo not drawn), for which the inhibition is inactive: -0.939%.

In the case of `COP(=O)(OC)N1CC1c1ccccc1` (stereo not drawn), the inhibition was inactive: -1.29%.

As for `CCCCOc1ccc(C(=O)NCC2(N3CCCCC3)CCCCC2)cc1OC`, the inhibition was inactive: 0.364%.

Consider `O=C(O)C(O)c1ccc(N(CCCl)CCCl)cc1` (stereo not drawn), for which the inhibition is inactive: -4.46%.

Turning to `CCOC(=O)Nc1ccc([As](=O)(O)O)c(O)c1`, the inhibition is inactive: 0.668%.

For the compound `CC1CCNP(=O)(N(CCCl)CCCl)O1` (stereo not drawn), the inhibition was inactive: -2.32%.

As to `Cc1cc(SC(NC=O)C(Cl)(Cl)Cl)ncn1` (stereo not drawn), the inhibition is inactive: 0.872%.

For the compound `O=P(Nc1ccccn1)(c1cccc2ccccc12)c1cccc2ccccc12`, the inhibition was inactive: 0.384%.

Regarding `O=[N+]([O-])c1ccc(Nc2ccc(Oc3ccc([N+](=O)[O-])cc3[N+](=O)[O-])cc2)c([N+](=O)[O-])c1`, the inhibition is inactive: 0.951%.

Consider `CCOC(=O)Nc1cccc([As](=O)(O)O)c1`, for which the inhibition is inactive: -1.56%.

On to `Cc1ccc(OP(=O)(Nc2ccc([N+](=O)[O-])cn2)Oc2ccc(C)cc2)cc1`, for which the inhibition is inactive: 1.16%.

As for `[N-]=[N+]=NC1CCCCC1NC(=O)c1cc([N+](=O)[O-])cc([N+](=O)[O-])c1` (stereo not drawn), the inhibition is inactive: 0.708%.

For the compound `Cc1ccc2nc3c(c(C)c2c1)CC(C(Cl)Cl)S3` (stereo not drawn), the inhibition is inactive: -1.24%.

As for `C[As](=O)(O)c1cccc(C(=O)O)c1`, the inhibition is inactive: 0.35%.

Take `O=[As](O)(c1ccc(O)cc1)c1ccccc1O`: the inhibition was inactive: 0.047%.

As for `O=[N+]([O-])c1ccc(-c2cc([N+](=O)[O-])c(O)c([N+](=O)[O-])c2)cc1`, the inhibition is inactive: -1.65%.

With `COc1cc(C(=O)NCC2(N3CCOCC3)CCCCC2)ccc1OCC(C)C`, the inhibition was inactive: 1.38%.

`CC(C)NC(=O)NP(=O)(Oc1ccccc1)Oc1ccccc1`: the inhibition is inactive: 0.477%.

As to `O=C(OC1CN2CCC1CC2)c1cccc2[nH]cnc12` (stereo not drawn), the inhibition is inactive: -1.08%.

`COC(=O)C1(C)COP(=O)(N2CCCCCC2)OC1` (stereo not drawn): the inhibition was inactive: -0.806%.

`CC(C)c1ccc(OP(=O)(Nc2ccccn2)Oc2ccccc2F)cc1` (stereo not drawn): the inhibition is inactive: 1.75%.

As to `O=P1(N(CCCl)CCCl)OCCCN1CCCl` (stereo not drawn), the inhibition is inactive: 5.02%.

In the case of `O=P1(N(CCCl)CCCl)Nc2ccccc2N1`, the inhibition is inactive: -0.005%.

In the case of `COc1ccc(CN2/C(=N\P(=O)(Oc3ccccc3)Oc3ccccc3)Cc3ccccc3C2C2CC2)cc1` (stereo not drawn), the inhibition was inactive: -0.296%.

Turning to `COc1ccc2nc(NP(=O)(c3ccccc3)c3ccccc3)sc2c1`, the inhibition is inactive: 0.244%.

Consider `COc1cc(I)ccc1[As](=O)(O)O`, for which the inhibition is inactive: -0.694%.

As to `Cc1c2c(nc3ccccc13)SC(C(Cl)Cl)C2` (stereo not drawn), the inhibition was inactive: 0.025%.

In the case of `Cc1cc(=O)[nH]c(N[N+](=O)[O-])n1`, the inhibition was inactive: 1.28%.

On to `O=[N+]([O-])c1cc(Oc2ccc([N+](=O)[O-])cc2C(F)(F)F)cc([N+](=O)[O-])c1`, for which the inhibition is inactive: 1.14%.

In the case of `COc1ccc(N/C(=N/P(=O)(N2CCOCC2)N2CCOCC2)N2CCOCC2)cc1`, the inhibition was inactive: 0.293%.
